Assay results as given in US20210269512A1 (NOVOBIND LIVESTOCK THERAPEUTICS, published 2021).

T1: NetB (necrotic enteritis toxin B) (Clostridium perfringens)
T1 chain: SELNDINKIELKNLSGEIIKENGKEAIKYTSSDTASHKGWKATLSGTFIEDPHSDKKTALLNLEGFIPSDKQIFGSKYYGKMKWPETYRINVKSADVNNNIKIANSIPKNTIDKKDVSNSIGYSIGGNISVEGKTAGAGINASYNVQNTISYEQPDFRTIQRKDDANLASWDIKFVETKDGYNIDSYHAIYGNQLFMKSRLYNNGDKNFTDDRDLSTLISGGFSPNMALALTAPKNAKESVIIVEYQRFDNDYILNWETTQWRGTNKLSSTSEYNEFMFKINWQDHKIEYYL

B1: NBX0303 (VHH)
VHH: QVQLQESGGGLVQAGGSLRLSCTASGRTLSYWTMGWFRQAPGKEREFVAAINWSSGTRYSDSVRDRFTIDGDTDKTTVYLEMNKMNLDDSAVYYCAAHRASFGLGYQTHEYDFWGQGTQVTVSS
B2: NBX0307 (VHH)
VHH: QVQLQESGGGLVQAGGSLRLSCTASGRTLSYWTMGWFRQVPGKEREFVAAINWSSGTRYSESVRDRFTIDGDTDKTTVYLEMNKMNLDDSAVYYCAAHRASFGLGYQTHEYDFWGQGTQVTVSS
B3: NBX0308 (VHH)
VHH: QVQLQQSGGGLVQAGGSLRLSCTASGRTLSYWTMGWFRQVPGKEREFVAAINWSSGTRYSESVRDRFTIDGDTDKTTVYLEMNKMNLDDSAVYYCAAHRASFGLGYQTHEYDFWGQGTQVTVSS
B4: NBX0323 (VHH)
VHH: QVQLQQSGGGLVQAGGSLRLSCTASGRTLSYWTMGWFRQAPGKEREFVAAINWSSGTRYSDSVRDRFTIDGDTDKTTVYLEMNKMNLDDSAVYYCAAHRASFGLGYQTHEYDFWGQGTQVTVSS
B5: NBX0324 (VHH)
VHH: QVQLQESGGGLVQAGGSLRLTCTASGRTLSYWTMGWFRQAPGKEREFVAAINWSSGTRYSDSVKDRFTIDGDSDKTTVYLQMNSLNLDDSAVYYCAAHRASFGLGYQTHEYDFWGQGTQVTVSS
B6: NBX0548 (VHH)
VHH: QVQLQQSGGGLVQSGGSLRLSCAASETSLNFDDMRWYRQTPGKRREWVAIINTFPAGTTASYADSVKGRFTISKVNGENTVHLQMNRLKPEDTAVYYCNAGDYWGQGTQVTVSS
B7: NBX0549 (VHH)
VHH: QVQLQESGGGLVQAGGSLRLSCTASGSDSSINYMGWYRQAPGKQRVLLAAISRDGRSNYADSVRGRFTISRDNAKNTVDLQMNSLKPEDTAVYYCYVDPLGRVPRWGQGTQVTVSS
B8: NBX0550 (VHH)
VHH: QVQLQESGGGAVQAGGSLTLSCVASGTVNLMAWYRQTPGRQRELVAVIKGTGTTRYADSVKDRFTISRDNAKNTMYLQMNDLKPDDTALYYCFASVLGAGTYWGQGTQVTVSS
B9: NBX0551 (VHH)
VHH: QVQLQESGGGLVQAGGSLRLSCAASGSIFSRNIILWHRQAPGKQRELVGGINTGGRTNYESSVKGRFTISRDNAKNTVYLQMDRLKPEDTAVYYCNAPSLGYWGQGTQVTVSS
B10: NBX0552 (VHH)
VHH: QVQLQQSGGGLVQAGGSLRLSCVASGSGSINYMAWHRQTPGRQRELVAVINRTGAARYADSVKDRFTISRDNAENTMYLQMNDLKPDDTAVYYCFASALGAGVYWGQGTQVTVSS
B11: NBX0513 (VHH)
VHH: QVQLQESGGGLVQAGGSLRLSCAASGSGRRVGYMAWYRQTPGKQRELVATISRAGATNYADSVKDRFTISRDNAKNTVYLQMNSLKPDDTAVYYCFASLFDAGTYWGQGTQVTVSS
B12: NBX0503 (VHH)
VHH: QVQLQESGGGLVQAGGSLRLSCAASGSGRRVGYMAWYRQTPGKQRESVATISRAGATKYADSVKDRFTISRDNAKDTVYLQMNSLKPDDTAVYYCFASLIDAGTYWGQGTQVTVSS
B13: NBX0506 (VHH)
VHH: QVQLQESGGGLVQAGGSLRVSCAASGSGRRVGYMAWYRQTPGKQRELVATISRAGATNYADSVKDRFTISRDNAKNTVYLQMNSLKPDDTAVYYCFASVFDAGTYWGQGTQVTVSS
B14: NBX0507 (VHH)
VHH: QVQLQESGGGLVQAGGSLRLSCAASGSGRRVGYMAWYRQTPGKQRELVATISRAGATNYADSVKDRFTISRDNAKNTVYLQMNSLKPDDTAVYYCFASIFDAGTYWGQGTQVTVSS
B15: NBX0512 (VHH)
VHH: QVQLQQSGGGLVQAGGSLRLSCAASGSGRRVGYMAWYRQTPGKQRELVATISRAGATNYADSVKDRFTISRDNAKNTVYLQMNSLKPDDTAVYYCFASVFDAGTYWGQGTQVTVSS
B16: NBX0553 (VHH)
VHH: QVQLQESGGGLVQPGGSLRLSCAASGSGWRVGYMAWYRQTPGKQRELVATISRAGATRYEDSVKDRFTISRDNAKNTVYLQMNSLKPDDTAVYYCFASIIDAGTYWGQGTPVTVSS
B17: NBX0309 (VHH)
VHH: QVQLQQSGGGLVQAGGSLRLSCAASGSTFNNYMIGWFRQAPGKEREFVATISGSGAGTFYADSVRGRFTISRDNAKNTVYLQMNSLKLEDTAGYYCARRMSRSGIFGLRDYDSWGQGTQVTVSS
B18: NBX0301 (VHH)
VHH: QVQLQESGGGVVQAGGSLSLSCSPYQRASSLFAMGWFRQSPGKEREFVAGISWNGDKSQYADSVKDRFTISRDNDKNTVFLQMNSLKPEDTAVYYCAAHRASFELGFATHDYDFWGQGTQVTVSS
B19: NBX0310 (VHH)
VHH: QVQLQQSGGGVVQAGGSLSLSCSPYQRASSLFAMGWFRQSPGKEREFVAGISWNGDKSQYADSVKDRFTISRDNDKNTVFLQMNSLKPEDTAVYYCAAHRASFELGFATHDYDFWGQGTQVTVSS
B20: NBX0311 (VHH)
VHH: QVQLQESGGGLVQAGGSLRLSCAASGRTFSNADMAWFRQSPGKERESVAAISWSGGRTYYADSVKGRATISRDIAKDTVYLQMNSLKPEDTAVYYCAAGGYSNLPTSYGYWGQGTQVTVSS
B21: NBX0318 (VHH)
VHH: QVQLQESGGGLVQAGGSLRLSCVVSGSIMSIRVMGWYRQAPGKQRELVATMSRGNTINYADSVRGRFTISRDNAKSTVYLQMNSLKPEDTDVYYCAALLDSYYWGQGTQVTVSS
B22: NBX0319 (VHH)
VHH: QVQLQESGGGLVQAGGSLRLSCAASASIISIRVMGWYRQAPGKQRELVATMSRGGTINYADSVRGRFTISRDNAKSTVFLEMNSLKPEDTAVYYCTALLDSYYWGQGTQVTVSS
B23: NBX0322 (VHH)
VHH: QVQLQESGGGLVQAGGSLRLSCQGSGRTFSTYAMGWYRQAPGKEREFVAAITRGGNTIYADSVKGRFTISRVSDKNTVYLQMSSLKPEDTAVYYCAADRIIVPRDPMDYWGKGTLVTVSS
B24: NBX0362 (VHH)
VHH: QVQLQESGGGLVQAGGSLRLSCVVSGSIMSIRVMGWYRQAPGKQRELVATMSRGNTINYADSVRGRFTISRDNAKSTVFLEMNSLKPEDTAVYYCAALLDSYYWGQGTQVTVSS
B25: NBX0364 (VHH)
VHH: QVQLQESGGGLVQAGGSLRLSCVVSGSIMSIRVMGWYRQAPGKQRELVATMSRGGTINYADSVRGRFTISRDNAKSTVYLQMNSLKPEDTAVYYCTALLDSYYWGQGTQVTVSS
B26: NBX0365 (VHH)
VHH: QVQLQESGGGLVQAGGSLRLSCAASGSIFSIRVMGWYRQAPGKQRELVATMSRGGTINYADSVRGRFTISRDNAKSTVYLQMNSLKPEDTAVYYCTALLDSYYWGQGTQVTVSS
B27: NBX0366 (VHH)
VHH: QVQLQESGGGLVQAGGSLRLSCVVSGSIMSIRVMGWYRQAPGKQRELVATMSRGGTINYADSVRGRFTISRDNAKNTVYLQMTSLKPEDTAVYYCTALLDSYYWGQGTQVTVSS
B28: NBX0370 (VHH)
VHH: QVQLQESGGGLVQAGGSLRLSCVVSGSIMSIRVMGWYRQAPGKQRELVATMSRGGTINYADSVRGRFTISRDNAKSTVYLQMNSLKPEDTAVYYCAALLDSYYWGQGTQVTVSS

Molecular target: T1, NetB (necrotic enteritis toxin B)
Assay: cell-based or functional assay

| Binder | IC50 < 50 nM, NetB cytotoxicity on LMH cells (LDH) [nM] | IC50 < 1 µM, NetB cytotoxicity on LMH cells (LDH) [nM] |
| --- | --- | --- |
| B1 | < 50 | < 1000 |
| B2 | < 50 | < 1000 |
| B3 | ≥ 50 | < 1000 |
| B4 | ≥ 50 | < 1000 |
| B5 | < 50 | < 1000 |
| B6 | < 50 | < 1000 |
| B7 | < 50 | < 1000 |
| B8 | < 50 | < 1000 |
| B9 | < 50 | < 1000 |
| B10 | < 50 | < 1000 |
| B11 | ≥ 50 | < 1000 |
| B12 | < 50 | < 1000 |
| B13 | < 50 | < 1000 |
| B14 | < 50 | < 1000 |
| B15 | ≥ 50 | < 1000 |
| B16 | < 50 | < 1000 |
| B17 | < 50 | < 1000 |
| B18 | ≥ 50 |  |
| B19 | < 50 | < 1000 |
| B20 | ≥ 50 | < 1000 |
| B21 | < 50 | < 1000 |
| B22 | < 50 | < 1000 |
| B23 | ≥ 50 | < 1000 |
| B24 | ≥ 50 | < 1000 |
| B25 | < 50 | < 1000 |
| B26 | < 50 | < 1000 |
| B27 | < 50 | < 1000 |
| B28 | ≥ 50 | < 1000 |
